Compound potency records, mixed from different reports. Data source: NIAID ChemDB in PubChem.

Shared fields: tests in culture; species: Cryptococcus neoformans; read-out: MIC80

An empty or dashed field is not shown. Neighbouring rows are from separate reports. MIC50, MIC90 and the like: level of inhibition, or share of isolates inhibited.

structure,strain,read by,value
CCCCN(Cc1cn(Cc2ccc(C)cc2)nn1)CC(O)(Cn1cncn1)c1ccc(F)cc1F,,,2 µg/mL
CN1CCN(c2n[nH]c(N3C(=O)CS[C@@H]3c3ccc4c(c3)OCO4)n2)CC1,H99,broth dilution,1.56 µg/mL
O=C(CCl)OC1CCN(CC(O)(Cn2cncn2)c2ccc(F)cc2F)CC1,BLS108,broth dilution,9.66 µM
OC(CN1CCN(c2ccc(OCc3ccncc3)cc2)CC1)(Cn1cncn1)c1ccc(F)cc1F,BLS74A,,0.5 µg/mL
Cn1nc(Cc2ccc(Cl)cc2)c2ccccc2c1=O,Clinical isolate (IM 000319),broth dilution,62.5 µg/mL
Cc1ccc(-c2c3c(N)c4c(nc3nc3c2c(C)nn3-c2ccccc2)CCCC4)cc1,ATCC 32264,broth dilution / absorbance,125 µg/mL
CCCCN(Cc1cn(Cc2cccc(F)c2)nn1)CC(O)(Cn1cncn1)c1ccc(F)cc1F,,,1 µg/mL
O=C(/C=C/c1cccc(F)c1)OC1CCN(CC(O)(Cn2cncn2)c2ccc(F)cc2F)CC1,BLS108,broth dilution,0.129 µM
O=C1S/C(=C\c2ccoc2)C(=O)N1CC(O)(Cn1nccn1)c1ccc(F)cc1F,,,2.31 µg/mL
c1cc2nc(CCCCc3nc4ccc(C5=NCCN5)cc4[nH]3)[nH]c2cc1C1=NCCN1,H99,,>100 µg/mL
COc1ccc(-c2c3c(N)c4c(nc3nc3c2c(C)nn3-c2ccccc2)CCCC4)cc1,ATCC 32264,broth dilution / absorbance,125 µg/mL
O=C1S/C(=C\c2ccco2)C(=O)N1CC(O)(Cn1nccn1)c1ccc(F)cc1F,,,4.62 µg/mL
O=C(/C=C/c1ccc([N+](=O)[O-])cc1)OC1CCN(CC(O)(Cn2cncn2)c2ccc(F)cc2F)CC1,BLS108,broth dilution,0.122 µM
CCCCN(Cc1cn(Cc2ccc(Br)cc2)nn1)CC(O)(Cn1cncn1)c1ccc(F)cc1F,,,>64 µg/mL
O=C(/C=C/c1ccc(Br)cc1)OC1CCN(CC(O)(Cn2cncn2)c2ccc(F)cc2F)CC1,BLS108,broth dilution,0.458 µM
CC(O)Cn1cc(CN2CCN([C@H](C)[C@](O)(Cn3cncn3)c3ccc(F)cc3F)CC2)c2cccc(Cl)c21,ATCC 36556,resazurin,>128 µg/mL
CCCCN(Cc1cn(Cc2ccccc2Br)nn1)CC(O)(Cn1cncn1)c1ccc(F)cc1F,,,64 µg/mL
CC(C)N=C(N)c1ccc2nc(-c3ccc(CCc4ccc(-c5nc6ccc(C(N)=NC(C)C)cc6[nH]5)cc4)cc3)[nH]c2c1,114.95,,0.19 µg/mL
Cc1nn(-c2ccccc2)c2nc3nc4c(c(N)c3c(-c3ccc(Cl)cc3)c12)CCCCC4,ATCC 32264,broth dilution / absorbance,125 µg/mL
O=C1S/C(=C\c2cccnc2)C(=O)N1CC(O)(Cn1nccn1)c1ccc(F)cc1F,,,72.16 µg/mL
C[C@@H](c1ncncc1F)[C@](O)(Cn1cncn1)c1ccc(F)cc1F,BLS1081,broth dilution,0.716 µM
C[C@@H](N1CCN(Cc2cn(Cc3ccc(F)cc3F)c3c(F)cccc23)CC1)[C@](O)(Cn1cncn1)c1ccc(F)cc1F,ATCC 36556,resazurin,>128 µg/mL
O=C(/C=C/c1ccccc1Br)OC1CCN(CC(O)(Cn2cncn2)c2ccc(F)cc2F)CC1,BLS108,broth dilution,0.458 µM
N=C(N)c1ccc(OCCCCCCOc2ccc(C(=N)N)cc2)cc1,H99,,6.25 µg/mL
CCC(=O)OC1CCN(CC(O)(Cn2cncn2)c2ccc(F)cc2F)CC1,BLS108,broth dilution,0.634 µM
N=C(N)c1ccc(OCCCC(O)COc2ccc(C(=N)N)cc2)cc1,167.95,,0.39 µg/mL
CCCCCCCCCCCCC(=O)OC1CCN(CC(O)(Cn2cncn2)c2ccc(F)cc2F)CC1,BLS108,broth dilution,0.48 µM
C[C@@H](N1CCN(Cc2cn(-c3ccc(F)cc3)c3cc(Cl)ccc23)CC1)[C@](O)(Cn1cncn1)c1ccc(F)cc1F,ATCC 36556,resazurin,>128 µg/mL
Cc1ccc(-c2c3c(N)c4c(nc3nc3c2c(C)nn3-c2ccccc2)CCC4)cc1,ATCC 32264,broth dilution / absorbance,250 µg/mL
Cc1ccc(/C=C/C(=O)OC2CCN(CC(O)(Cn3cncn3)c3ccc(F)cc3F)CC2)cc1,BLS108,broth dilution,0.13 µM

Again, the opening 3 rows:

structure,strain,read by,value
CCCCN(Cc1cn(Cc2ccc(C)cc2)nn1)CC(O)(Cn1cncn1)c1ccc(F)cc1F,,,2 µg/mL
CN1CCN(c2n[nH]c(N3C(=O)CS[C@@H]3c3ccc4c(c3)OCO4)n2)CC1,H99,broth dilution,1.56 µg/mL
O=C(CCl)OC1CCN(CC(O)(Cn2cncn2)c2ccc(F)cc2F)CC1,BLS108,broth dilution,9.66 µM